Anti-infective test results gathered from many reports (values: NIAID ChemDB through PubChem).

All rows: whole-cell or culture tests; organism: HIV-1

An empty or dashed field is not shown. Lines come from different laboratories, so protocols vary. ECn: concentration that inhibits the pathogen or its effect by n%.

smiles | mutations | read by | cell line | strain | measure | result
CC1(C)Oc2ccc3cc(C(Br)Br)c(=O)oc3c2[C@@H](OC(=O)C23CCC(C)(C(=O)O2)C3(C)C)[C@H]1OC(=O)C12CCC(C)(C(=O)O1)C2(C)C | - | p24 | H9 | IIIB | EC50 | 0.949 µM
C#CCNC(=O)CSc1cnc(Nc2ccc(C#N)cc2)nc1Oc1c(C)cc(C#N)cc1C | F227L V106A | MTT | MT-4 | - | EC50 | 0.126 µM
CC(C)(C)OC(=O)N1[C@H](CO)CC(F)(F)[C@H]1n1cc(F)c(=O)[nH]c1=O | - | RT activity | PBMC | LAI | EC90 | 75.6 µM
O=C(NCCCCCCN1CCC[C@@H]2C[C@@H]3C[C@@H](CN4CCCC[C@H]34)[C@@H]21)c1ccc(OC(F)(F)F)cc1 | - | luciferase | MT-4 | NL4-3 | EC50 | >20 µM
Oc1cccc2ccc(/C=N/Nc3ccc(F)cc3)nc12 | - | luciferase | TZM-bl | UG070 | EC50 | 68.86 µM
Cc1cc(C#N)cc(C)c1Oc1nc(Nc2ccc(C#N)cc2)ncc1SCC(=O)NC1CCN(C(=O)OC(C)(C)C)CC1 | F227L V106A | MTT | MT-4 | - | EC50 | 0.3389 µM
CCc1c(Cc2ccccc2)nc(SCC(=O)c2ccc(OC)cc2)[nH]c1=O | - | - | C8166 | - | EC50 | 0.04828 µM
O=C(O)c1cn(-c2ccc(Cn3cncn3)cc2)c2cc(N3CCN(c4ccc(Cl)c(Cl)c4)CC3)c(F)cc2c1=O | - | syncytia | PBL | - | EC50 | 0.3 µM
Cc1c(C[N+](=O)[O-])c(=O)oc2c3c(ccc12)OC(C)(C)[C@H](OC(=O)C12CCC(C)(C(=O)O1)C2(C)C)[C@@H]3OC(=O)C12CCC(C)(C(=O)O1)C2(C)C | - | p24 | H9 | IIIB | EC50 | 0.023 µM
O=c1ncc2nc(-c3ccccn3)c(-c3ccccn3)nc2[nH]1 | - | cytopathic effect / MTT / absorbance | MT-4 | IIIB | EC50 | >82.3 µM
Cc1cc(C#N)cc(C)c1Oc1nc(Nc2ccc(C#N)cc2)ncc1SCC(=O)NCCCN1CCOCC1 | RES056 | MTT | MT-4 | - | EC50 | 0.3452 µM
COc1cc2c(c3oc(=O)c(COC(C)=O)c(C)c13)[C@@H](OC(=O)C13CCC(C)(C(=O)O1)C3(C)C)[C@@H](OC(=O)C13CCC(C)(C(=O)O1)C3(C)C)C(C)(C)O2 | - | cytopathic effect / XTT | MT-4 | IIIB | EC50 | 39.6 µM
Cc1cc(C#N)cc(C)c1Oc1nc(Nc2ccc(C#N)cc2)ncc1SCC(=O)NCCN1CCN(C(=O)OC(C)(C)C)CC1 | Y188L | MTT | MT-4 | - | EC50 | 0.2264 µM
CCOCn1c(C(=O)c2cccc(C#N)c2)c(CC)c(OC)nc1=O | Y181C | MTT | MT-4 | IIIB | EC50 | >100 µM
C=C1CN(S(=O)(=O)c2ccc(C)cc2)CCCN(CC2CCCCC2)CCCN(S(=O)(=O)c2ccc(C)cc2)C1 | - | p24 | MT-4 | NL4-3 | EC50 | 0.29 µM
COc1cc(O)c(CC=C(C)C)c(O)c1C(=O)/C=C/c1ccc(O)cc1 | - | syncytia | C8166 | IIIB | EC50 | 2 µM
O=C(NCCCCN1CCCC2=C[C@@H]3C[C@@H](CN4CCCC[C@H]34)[C@@H]21)C1(c2ccc(OC(F)(F)F)cc2)CC1 | - | luciferase | MT-4 | NL4-3 | EC50 | 3.95 µM
O=C(O)c1cn(-c2ccc(Cn3cncn3)cc2)c2c(F)c(N3CCN(c4ccc(Cl)c(C(F)(F)F)c4)CC3)c(F)cc2c1=O | - | syncytia | PBL | - | EC50 | 0.7 µM
C=C1CN(S(C)(=O)=O)CCCN(Cc2ccccc2)CCCN(S(C)(=O)=O)C1 | - | p24 | MT-4 | NL4-3 | EC50 | >75 µM
Nc1ncnc2c1ncn2C1OC(CO)C=C1F | - | RT activity | PBMC | LAV | EC50 | 1.5 µM
Cc1nc2c(c(C)c(C)n2CC2(O)CC2)c(-c2ccc(Cl)cc2)c1[C@H](OC(C)(C)C)C(=O)O | - | MTT | MT-4 | IIIB | EC50 | 0.0206 µM
Cc1ccc(C)c(CSc2c(Cl)ccc[n+]2[O-])c1 | - | cytopathic effect | CEM | RF | EC50 | 0.16 µg/mL
Cc1ccc(S(=O)(=O)N2CCCN(Cc3ccccc3)CCCN(S(=O)(=O)c3ccc(C)cc3)CC(CCl)C2)cc1 | - | p24 | MT-4 | NL4-3 | EC50 | 2.2 µM
CC(C)(C)OC(=O)N1[C@H](CO)CC(F)(F)[C@@H]1n1cnc2c(Cl)ncnc21 | - | RT activity | PBMC | LAI | EC90 | >100 µM
CCC[C@@]1(CCc2ccccc2)CC(O)=C([C@H](CC)c2cccc(NS(=O)(=O)c3ccc(C(F)(F)F)cn3)c2)C(=O)O1 | R41E | reporter gene | MT-4 | T21729 | EC50 | 2587 nM
O=C(O)c1cn(-c2ccc(Cn3cncn3)cc2)c2cc(N3CCN(c4ccccc4)CC3)c(F)cc2c1=O | - | syncytia | PBL | - | EC50 | 0.15 µM
Cc1cc(C#N)cc(C)c1Oc1nc(Nc2ccc(C#N)cc2)ncc1SCC(=O)NCCN1CCOCC1 | E138K | MTT | MT-4 | - | EC50 | 0.0238 µM
Oc1cccc2ccc(/C=N/Nc3cccc(C(F)(F)F)c3)nc12 | - | luciferase | TZM-bl | VB59 | EC50 | 24.78 µM
O=C(CSc1nc2nc(C3=CCC=C=N3)c(-c3ccccn3)nc2c(=O)[nH]1)c1ccccc1 | - | cytopathic effect / MTT / absorbance | MT-4 | IIIB | EC50 | >41.88 µM
Cc1c(CC2CCCCC2)nc(SCC(C)C)[nH]c1=O | - | - | C8166 | - | EC50 | 1.734 µM
COc1ccc(S(=O)(=O)N(CC(O)CN(Cc2ccccc2)C(=O)OC2COCOC2)CC2CCCC2)cc1 | - | p24 | CEM | IIIB | EC90 | 1 µM
Cc1cc(C#N)cc(C)c1Oc1nc(Nc2ccc(C#N)cc2)ncc1SCC(=O)NCC1CCCO1 | E138K | MTT | MT-4 | - | EC50 | 0.0169 µM
C=C1CN(S(=O)(=O)c2ccc(C)cc2)CCCN(CC2CC=CCC2)CCCN(S(=O)(=O)c2ccc(C)cc2)C1 | - | p24 | Monocytes/macrophages | BaL | EC50 | 0.29 µM
CC(C)CSc1nc(CC2CCCCC2)c(C(C)C)c(=O)[nH]1 | - | - | C8166 | - | EC50 | 0.09292 µM
CC(C)(C)OC(=O)N1[C@H](CO)CC(F)(F)[C@@H]1n1cnc2c(N)ncnc21 | - | - | PBMC | LAI | EC90 | >100 µM
COc1ccc(S(=O)(=O)N(CC2CCCC2)C[C@@H](O)CN(CCc2ccc(O)c(O)c2)C(=O)O[C@H]2CCOC2)cc1 | - | p24 | CEM | IIIB | EC50 | <0.1 µM
O=Cc1ccc2cccc(O)c2n1 | - | luciferase | TZM-bl | VB59 | EC50 | 12.3 µM
Cc1c(CO)c(=O)oc2c3c(ccc12)OC(C)(C)[C@H](OC(=O)C12CCC(C)(C(=O)O1)C2(C)C)[C@@H]3OC(=O)C12CCC(C)(C(=O)O1)C2(C)C | - | p24 | H9 | IIIB | EC50 | 0.01622 µM
CCc1c(CC2CCCCC2)nc(SCc2ccccc2)[nH]c1=O | - | - | C8166 | - | EC50 | 0.5316 µM
CCOCn1c(C(=O)c2cccc(C#N)c2)c(CC)c(=O)[nH]c1=O | - | MTT | MT-4 | IIIB | EC50 | 0.1 µM
Cc1cn([C@H]2C=C[C@@H](COC(=O)CCCCCCCCCCCN=[N+]=[N-])O2)c(=O)[nH]c1=O | - | p24 | MT-4 | - | EC90 | 0.75 µM
CC(C)(C)OC(=O)N1[C@H](CO)CC(F)(F)[C@H]1n1ccc(=O)[nH]c1=O | - | RT activity | PBMC | LAI | EC90 | >100 µM
CC(C)CN(C[C@@H](O)[C@H](Cc1ccccc1)NC(=O)O[C@H]1CO[C@H]2OCC[C@H]21)S(=O)(=O)c1ccc2c(c1)OCO2 | - | p24 | PHA-PBM | MDR/JSL | EC50 | 0.006 µM
Clc1nccc2nc(-c3cccs3)cnc12 | - | cytopathic effect / MTT / absorbance | MT-4 | IIIB | EC50 | >5.23 µM
[N-]=[N+]=N[C@]1(CO)O[C@@H](n2cnc3c(N)ncnc32)C[C@@H]1O | - | - | A301 + A3.01 | - | EC50 | 0.03 µM
Cc1cc(C#N)cc(C)c1Oc1nc(Nc2ccc(C#N)cc2)ncc1SCC(N)=O | L100I | MTT | MT-4 | - | EC50 | 0.0547 µM
COc1ccc(Cn2c(C)c(C)c3c(-c4ccc(Cl)cc4)c(C(OC(C)(C)C)C(=O)O)c(C)nc32)cc1 | - | MTT | MT-4 | IIIB | EC50 | 0.134 µM
CC(C)(C)OC(=O)N1[C@H](CO)CC(F)(F)[C@@H]1n1cnc2ncnc(N)c21 | - | - | PBMC | LAI | EC90 | >100 µM
CCSCCCCCCCCCCC(=O)OC[C@@H]1C=C[C@H](n2cc(C)c(=O)[nH]c2=O)O1 | - | p24 | MT-4 | - | EC50 | 0.03 µM
O=c1c2nc(-c3ccccn3)c(-c3ccccn3)nc2nc2scc(-c3ccccc3)n12 | - | cytopathic effect / MTT / absorbance | MT-4 | IIIB | EC50 | >2.25 µM
O=C(O[C@H]1CCOC1)N(Cc1ccccc1)CC(O)CN(CC1CCCC1)S(=O)(=O)c1ccccc1 | - | p24 | CEM | IIIB | EC90 | 1 µM
CCCOC(=O)C(C)(C)NP(=O)(CO[C@H](C)Cn1cnc2c(N)ncnc21)C(C#N)C#N | - | RT activity / fluorescence | PBMC | - | EC50 | >2.101 µM
COc1ccc(C(=O)CSc2nc3nc(C4=CCC=C=N4)c(-c4ccccn4)nc3c(=O)[nH]2)cc1 | - | cytopathic effect / MTT / absorbance | MT-4 | IIIB | EC50 | >36.1 µM
CCc1c(CC2CCCCC2)nc(SCC(=O)c2ccccc2)[nH]c1=O | - | - | C8166 | - | EC50 | 0.000012 µM
N#CC1CCCN1C(=O)C(Cc1ccccc1)NC(=O)OCC1c2ccccc2-c2ccccc21 | - | p24 | CEM | IIIB | EC50 | >12 µM
CC(C)CN(CC(O)CC(=O)N1CCN(Cc2cccnc2)C[C@H]1C(=O)NC(C)(C)C)S(=O)(=O)c1ccccc1 | - | p24 | CEM | IIIB | EC90 | 1 µM
O=C(NCCCCCCN1CCCC2=C[C@@H]3C[C@@H](CN4CCCC[C@H]34)[C@@H]21)c1c(F)cccc1F | - | luciferase | MT-4 | NL4-3 | EC50 | >20 µM
COCCNC(=O)CSc1cnc(Nc2ccc(C#N)cc2)nc1Oc1c(C)cc(C#N)cc1C | K103N | MTT | MT-4 | - | EC50 | 0.0019 µM
C=C1CN(S(=O)(=O)c2ccc(Br)cc2)CCCN(Cc2ccccc2)CCCN(S(=O)(=O)c2ccc(Br)cc2)C1 | - | p24 | MT-4 | NL4-3 | EC50 | 1.84 µM
CC(C)c1c(CC2CCCCC2)nc(SCC(=O)c2ccccc2)[nH]c1=O | - | - | C8166 | - | EC50 | 0.000025 µM
Nc1ccc(S(=O)(=O)N(CCC(O)CN(CC2CCCC2)S(=O)(=O)c2ccccc2)CC2CCCC2)cc1 | - | p24 | CEM | IIIB | EC50 | <1 µM
CCCOCn1c(C(F)c2cccc(C#N)c2)c(CC)c(=O)[nH]c1=O | K103N + Y181C | MTT | MT-4 | IIIB | EC50 | 14 µM
Oc1cccc2ccc(/C=N/Nc3ccc(Br)cc3)nc12 | - | luciferase | TZM-bl | VB59 | EC50 | >150 µM
COCCCCCCCCCCCC(=O)OC[C@@H]1C=C[C@H](n2cc(C)c(=O)[nH]c2=O)O1 | - | p24 | MT-4 | - | EC50 | 1.18 µM
CCCCCCCCCCCCCCCCCCOC1C(OCc2ccccc2)C2COC(O2)C1OCc1ccccc1 | - | MTT | MT-4 | - | EC50 | 0.09 µg/mL
Nc1ncnc2c1ncn2[C@H]1C[C@@H](CO)C=C1F | RT-M184V | RT activity | PBMC | - | EC90 | >100 µM
C=C(C)[C@]1(O)C[C@@H](C)[C@@]2(O)[C@H]([C@H]1OC(=O)/C=C/C=C/CCCCC)[C@@H]1O[C@]1(CO)[C@@H](O)[C@]1(O)C(=O)C(C)=C[C@H]12 | - | p24 / ELISA / antigen | C8166 | IIIB | EC50 | 0.445 µM
Cc1nc2c(c(C)c(C)n2CCC#N)c(-c2ccc(Cl)cc2)c1C(OC(C)(C)C)C(=O)O | - | MTT | MT-4 | IIIB | EC50 | 0.00639 µM
CC(C)(C)OC(=O)N1[C@H](CO)CC(F)(F)[C@H]1n1cnc2ncnc(Cl)c21 | - | RT activity | PBMC | LAI | EC90 | >100 µM
O=C(N[C@@H](Cc1ccccc1)C(=O)C(F)(F)C(Cc1ccccc1)NS(=O)(=O)c1ccccc1)OC1COCOC1 | - | p24 | CEM | IIIB | EC90 | 1 µM
Cc1nc2c(c(C)c(C)n2Cc2cccnc2)c(-c2ccc(Cl)cc2)c1C(OC(C)(C)C)C(=O)O | - | MTT | MT-4 | IIIB | EC50 | 0.0264 µM

For reference, 9 entries again:

smiles,mutations,read by,cell line,strain,measure,result
Cc1ccc(C)c(CSc2c(Cl)ccc[n+]2[O-])c1,-,cytopathic effect,CEM,RF,EC50,0.16 µg/mL
COc1ccc(S(=O)(=O)N(CC(O)CN(Cc2ccccc2)C(=O)OC2COCOC2)CC2CCCC2)cc1,-,p24,CEM,IIIB,EC90,1 µM
C=C1CN(S(=O)(=O)c2ccc(Br)cc2)CCCN(Cc2ccccc2)CCCN(S(=O)(=O)c2ccc(Br)cc2)C1,-,p24,MT-4,NL4-3,EC50,1.84 µM
CCOCn1c(C(=O)c2cccc(C#N)c2)c(CC)c(OC)nc1=O,Y181C,MTT,MT-4,IIIB,EC50,>100 µM
CCCOCn1c(C(F)c2cccc(C#N)c2)c(CC)c(=O)[nH]c1=O,K103N + Y181C,MTT,MT-4,IIIB,EC50,14 µM
O=C(O[C@H]1CCOC1)N(Cc1ccccc1)CC(O)CN(CC1CCCC1)S(=O)(=O)c1ccccc1,-,p24,CEM,IIIB,EC90,1 µM
COc1ccc(C(=O)CSc2nc3nc(C4=CCC=C=N4)c(-c4ccccn4)nc3c(=O)[nH]2)cc1,-,cytopathic effect / MTT / absorbance,MT-4,IIIB,EC50,>36.1 µM
O=C(O)c1cn(-c2ccc(Cn3cncn3)cc2)c2cc(N3CCN(c4ccccc4)CC3)c(F)cc2c1=O,-,syncytia,PBL,-,EC50,0.15 µM
CC(C)CN(C[C@@H](O)[C@H](Cc1ccccc1)NC(=O)O[C@H]1CO[C@H]2OCC[C@H]21)S(=O)(=O)c1ccc2c(c1)OCO2,-,p24,PHA-PBM,MDR/JSL,EC50,0.006 µM